{
  "source": "patent US11390664B2",
  "about": "“Antibodies that potently neutralize hepatitis B virus and uses thereof” (priority 2015, dated 2022)",
  "key": {"[1]": {"test_system": "HDV", "assay": "HBV/HDV co-infected humanized uPA/SCID mice: HDV viremia", "assay_type": "in vivo", "details": "3 weeks and 6 weeks after treatment (weeks 8 and 11); 1 mg/kg i.p. twice per week"}, "[2]": {"test_system": "HBV (genotype D)", "assay": "Combination therapy in chronically HBV infected humanized uPA/SCID mice", "assay_type": "in vivo", "details": "4 weeks treatment from week 8 post-infection; HBC34 1 mg/kg i.p. twice per week; lamivudine 0.4 mg/ml in drinking water"}, "[3]": {"test_system": "HBV", "assay": "HBV/HDV co-infected humanized uPA/SCID mice: HBV DNA viremia", "details": "1 mg/kg i.p. twice per week for 6 weeks"}},
  "data": [
    {"substance": "HBC34: IgG1-type fully human monoclonal antibody against HBsAg antigenic loop; VH SEQ ID NO: 41, VL SEQ ID NO: 42", "values": [
      {"measurement": "HDV viral spread", "setting": "[1]", "value": "efficiently blocked"},
      {"measurement": "HBsAg drop (reduction)", "setting": "[2]", "value": 1.3, "unit": "log"},
      {"measurement": "mean reduction of viremia", "setting": "[2]", "value": 0.7, "unit": "log"},
      {"measurement": "HBV viral DNA titers reduction", "setting": "[3]", "value": 2, "unit": "logs"}
    ]}
  ]
}
